A mixed list of measured activities; the numbers were collected in NIAID ChemDB.

Shared fields: tests in culture; agent: Mycobacterium tuberculosis

Blank or dashed fields: not listed here. ECn is the concentration giving n% inhibition of infection, replication or growth. Rows are shuffled and stem from different studies. A number after MIC or MFC names an inhibition level or a share of isolates. Inhibition is in % at the dose shown (toxicity tests: loss of growth or viability). MIC bound comes from a single tested concentration.

structure	strain	tested at	cell line	method	measure	value
C=C1C[C@@]23CC[C@H]4[C@@](C)(CCC[C@@]4(C)C(=O)O)[C@@H]2CC[C@@H]1C3	H37Rv			BACTEC	MIC	≥12.5 µg/mL
Nc1ccc(-c2nnc(SCc3ccc([N+](=O)[O-])cc3)n2-c2ccccc2)cc1	H37Rv				EC50	>6.25 µg/mL
NNC(=O)c1ccc(Br)cc1	ATCC35801				MIC50	21.5 µg/mL
CO[C@H]1/C=C/O[C@@]2(C)Oc3c(C)c(O)c4c(O)c(c(/C=N/c5ccccn5)c(O)c4c3C2=O)NC(=O)/C(C)=C\C=C\[C@H](C)[C@H](O)[C@@H](C)[C@@H](O)[C@@H](C)[C@H](OC(C)=O)[C@@H]1C	H37Rv				EC50	5 µg/mL
C=CCn1c(SCc2ccccc2)nnc1-c1ccc(N)cc1	H37Rv				EC50	>6.25 µg/mL
Cc1cnc(NC(=O)c2cnc(C(C)(C)C)c(Cl)n2)s1	H37Rv	6.25 µg/mL			inhibition	61%
CCCN(CCC)/N=C/c1c2c(O)c3c(O)c(C)c4c(c3c1O)C(=O)[C@@](C)(O/C=C/[C@H](OC)[C@@H](C)[C@@H](OC(C)=O)[C@H](C)[C@H](O)[C@H](C)[C@@H](O)[C@@H](C)/C=C/C=C(/C)C(=O)N2)O4	H37Rv				EC50	0.05 µg/mL
COc1c(N2CCNC(C)C2)c(F)cc2c(=O)c(C(=O)O)cn(C3CC3)c12	25 strains				MIC90	0.2 µg/mL
COc1cccc(NC(=O)c2cnc(C(C)(C)C)cn2)c1	H37Rv	6.25 µg/mL			inhibition	53%
CCCCN=C1OCc2[nH][nH]c(=O)c21	H37Rv			BACTEC	MIC bound	>12.5 µg/mL
CO[C@H]1/C=C/O[C@@]2(C)Oc3c(C)c(O)c4c(O)c(c(C=Nc5ccccc5C)c(O)c4c3C2=O)NC(=O)/C(C)=C\C=C\[C@H](C)[C@H](O)[C@@H](C)[C@@H](O)[C@@H](C)[C@H](OC(C)=O)[C@@H]1C	H37Rv				EC50	5 µg/mL
CC(C)(C)c1ncc(C(=O)Nc2cc(Br)ccc2O)nc1Cl	H37Rv	6.25 µg/mL			inhibition	30%
Cn1c(NNc2nc(Nc3ccc(Cl)cc3)nc(Nc3ccc(Cl)cc3)n2)nc(-c2ccc(Cl)cc2)c(C#N)c1=O	H37Rv	12.5 µg/mL			inhibition	94%
COC(=O)c1cc(-c2ccc(C)cc2)c2c(=O)n(-c3ccccc3)[nH]c2n1	H37Rv			BACTEC	MIC	≥12.5 µg/mL
O=c1nc2c(ncn2Cc2ccccc2)c(-c2ccco2)n1Cc1ccccc1	H37Rv				EC50	>12.5 µg/mL
CC(=O)NC[C@H]1CN(c2ccc(-c3ccc(CNCc4cn[nH]n4)cc3)c(F)c2)C(=O)O1	H37Rv			resazurin	EC90	0.03 µg/mL
O=C(NCc1ccc(N2CCN(Cc3ccccc3)CC2)cc1)c1ccc([N+](=O)[O-])o1	HN878				MIC	0.05 µg/mL
O=c1oc2ccc(Br)cc2cc1-c1cs/c(=N\N=C\c2cc(Br)ccc2O)n1Cc1ccccc1	H37Rv	6.25 µg/mL			inhibition	<11%
CN[C@@H]1[C@H](O[C@H]2[C@H](O[C@H]3[C@H](O)[C@@H](O)[C@H](N=C(N)N)[C@@H](O)[C@@H]3N=C(N)N)O[C@@H](C)[C@]2(O)C=O)O[C@@H](CO)[C@H](O)[C@H]1O	89 drug-resistant isolates				EC50	<5 µg/mL
CN(C=O)C(=S)[S][Sb]([S]C(=S)N(C)C=O)[S]c1nc2ccc(N=Nc3ccc(NS(=O)(=O)c4ccc(NC(=O)C(Cl)Cl)cc4)cc3)cc2s1	H37Rv	128 µg/mL		BACTEC	inhibition	100%
CC(=O)NC[C@H]1CN(c2ccc(N3C[C@H]4CC(NCc5ccccc5)C[C@H]4C3)c(F)c2)C(=O)O1	H37Rv			broth dilution / resazurin	MIC	32 µg/mL
COC(=O)CSc1nc(N)c2c3c(sc2n1)CC(C(C)(C)C)CC3	H37Rv			MTT	MIC	1 µM
C=CNC(=S)n1nc(-c2ccccc2NC(=O)C(F)(F)F)c(=O)n(C(=S)NC=C)c1=S	H37Rv			BACTEC	MIC bound	>12.5 µg/mL
CCOc1cc(/C=N/N=c2\scc(-c3cc4ccccc4oc3=O)n2Cc2ccccc2)ccc1O	H37Rv	6.25 µg/mL			inhibition	<11%
NCC[C@H](O)C(=O)N[C@@H]1C[C@H](N)[C@@H](O[C@H]2O[C@H](CN)[C@@H](O)[C@H](O)[C@H]2O)[C@H](O)[C@H]1O[C@H]1O[C@H](CO)[C@@H](O)[C@H](N)[C@H]1O	H37Rv			broth dilution	MIC99	0.5 µg/mL
CCNc1nc(NCC)nc(NNc2nc(-c3ccccc3)c(C#N)c(=O)n2C)n1	H37Rv	12.5 µg/mL			inhibition	46%
CCCN1CCN(c2cc3c(cc2F)c(=O)c(C(=O)O)cn3C2CC2)CC1					MIC90	0.25 µg/mL
O=C1Sc2ccccc2Cn2cccc21	H37Rv			BACTEC	MIC bound	>12.5 µg/mL
CCCc1ccc(C(=O)Nc2nc3ccccc3s2)cc1	H37Rv			MTT	MIC	8.5 µM
Cc1cc(=O)oc2c(C)c3c(cc12)CC(CN(C)C)O3	H37Rv	12.5 µg/mL		BACTEC	inhibition	4%
CC(C)N1CCN(c2cc3c(cc2F)c(=O)c(C(=O)O)cn3C2CC2)CC1					MIC50	0.125 µg/mL
CN[C@@H]1[C@H](O[C@H]2[C@H](O[C@H]3[C@H](O)[C@@H](O)[C@H](N=C(N)N)[C@@H](O)[C@@H]3N=C(N)N)O[C@@H](C)[C@]2(O)C=O)O[C@@H](CO)[C@H](O)[C@H]1O	9445 (streptomycin-S isoniazid-R)				MIC	<4 µg/mL
Cn1c(NNc2nc(Nc3ccc(F)c(Cl)c3)nc(Nc3ccc(F)c(Cl)c3)n2)nc(-c2ccc(Cl)cc2)c(C#N)c1=O	H37Rv	12.5 µg/mL	VERO		inhibition	98%
Cc1ccc2nc(N/N=C/c3cccc(C)n3)cc(C)c2c1	H37Rv				MIC	>12.5 µg/mL
CC(=O)NC[C@H]1CN(c2ccc(N3C[C@H]4CC(NC(C)=O)C[C@H]4C3)c(F)c2)C(=O)O1	H37Rv			broth dilution / resazurin	MIC	1 µg/mL
CC(C)N=c1cc2n(-c3ccc(Cl)cc3)c3ccccc3nc-2cc1Nc1ccc(Cl)cc1	H37Rv			broth dilution	MIC99	0.25 µg/mL
Nc1nnc2nc(C3(c4nc5nnc(N)n5[nH]c4=O)CCCC3=O)c(=O)[nH]n12	H37Rv	12.5 µg/mL		BACTEC	inhibition	0%
NC(N)=NC[C@H]1C[C@@H](C(=O)O)C[C@@H]1N=C(N)N	TMC 124 (kurono)				MIC	1.56 µg/mL
CC(=O)NC[C@H]1CN(c2ccc(N3C[C@H]4CC(N)C[C@H]4C3)c(F)c2)C(=O)O1	H37Rv			broth dilution / resazurin	MIC	2 µg/mL
O=c1nc2c(ncn2Cc2ccccc2)c(-c2ccccc2)n1Cc1ccccc1	H37Rv				MIC	>12.5 µg/mL
C[C@]1(COc2ccc(N3CCC(Oc4ccc(OC(F)(F)F)cc4)CC3)cc2)Cn2cc([N+](=O)[O-])nc2O1	H37Rv				MIC	0.024 µg/mL
Cc1c(F)c(=O)oc2c(C)c3c(cc12)CC(CI)O3	H37Rv	12.5 µg/mL		BACTEC	inhibition	31%
NC(=O)C(=CNC(=S)Nc1ccc(S(N)(=O)=O)cc1)C(N)=O	H37Rv			resazurin	MIC bound	<6.25 µg/mL
COc1cc(/C=N/N=c2\scc(-c3cc4cc(Br)ccc4oc3=O)n2Cc2ccccc2)ccc1O	H37Rv				MIC	>6.25 µg/mL
NNC(=O)CNc1ccc(F)c(Cl)c1	H37Rv	12.5 µg/mL		BACTEC	inhibition	63%
Cc1ccc(-n2c(SCc3ccccc3)nnc2-c2ccc(N=Cc3ccc(O)cc3)cc2)cc1	H37Rv	6.25 µg/mL			inhibition	<50%
O=C(NC1C[C@@H]2CN(c3ccc(N4C[C@H](Cn5ccnn5)OC4=O)cc3F)C[C@@H]2C1)c1ccc([N+](=O)[O-])cc1	H37Rv			broth dilution / resazurin	MIC	1 µg/mL
O=C1c2ccccc2C(=O)c2sc(Nc3cccc(Cl)c3)nc21	H37Rv			BACTEC	MIC bound	≤12.5 µg/mL
CC(C)(C)c1ncc(C(=O)Nc2ccccc2Br)nc1Cl	H37Rv	6.25 µg/mL			inhibition	25%
O=C(O)/C=C/C(=O)NNc1ccc(Cl)cc1Cl	H37Rv			BACTEC	MIC bound	>12.5 µg/mL
CCOC(=O)CSc1nc(N)c2c3c(sc2n1)CC(C(C)(C)C)CC3	H37Rv			MTT	MIC	1 µM
O=C(c1ccc([N+](=O)[O-])o1)N1CCc2cc(N3CCN(Cc4ccccc4)CC3)ccc2C1	H37Rv				MIC	0.012 µg/mL
Cn1c(SCc2ccccc2)nnc1-c1ccc(N)cc1	H37Rv	6.25 µg/mL			inhibition	<50%
NNC(=O)c1ccncc1	ATCC35801				MIC50	16.7 µg/mL
O=C1OC(c2cccc3ccccc23)=N/C1=C/c1cccs1	H37Rv			MTT	MIC	20.5 µM
COc1cccc2c1C(=O)c1c(O)c3c(c(O)c1C2=O)C[C@@](O)(/C(C)=N/NC(=O)c1ccc(Cl)c(Cl)c1)C[C@H]3O[C@H]1C[C@H](N)[C@H](O)[C@H](C)O1	H37Rv			BACTEC	MIC bound	≤12.5 µg/mL
Cn1c(NNc2nc(NCc3ccccc3)nc(NCc3ccccc3)n2)nc(-c2ccccc2)c(C#N)c1=O	H37Rv	12.5 µg/mL			inhibition	82%
Cc1csc(NC(=O)c2cnc(C(C)(C)C)cn2)n1	H37Rv	6.25 µg/mL			inhibition	35%
Cc1cc(=O)oc2c(C)c3c(cc12)CC(CI)O3	H37Rv	12.5 µg/mL		BACTEC	inhibition	24%
CO[C@H]1/C=C/O[C@@]2(C)Oc3c(C)c(O)c4c(O)c(c(/C=N/N5CCN(C)CC5)c(O)c4c3C2=O)NC(=O)/C(C)=C\C=C\[C@H](C)[C@H](O)[C@@H](C)[C@@H](O)[C@@H](C)[C@H](OC(C)=O)[C@@H]1C	H37Rv			fluorescence	MIC	0.01 µM
Cn1c(NNc2nc(Nc3cccc(Cl)c3)nc(Nc3cccc(Cl)c3)n2)nc(-c2ccc(Cl)cc2)c(C#N)c1=O	H37Rv	12.5 µg/mL			inhibition	0%
O=c1ccc2nc3cc(Cl)ccc3sc-2c1	H37Rv	12.5 µg/mL		BACTEC	inhibition	100%
COc1cccc(Nc2nc(NNc3nc(-c4ccc(Cl)cc4)c(C#N)c(=O)n3C)nc(Nc3cccc(OC)c3)n2)c1	H37Rv				MIC	>12.5 µg/mL
NNC(=O)c1ccc([N+](=O)[O-])cc1	H37Rv	12.5 µg/mL		BACTEC	inhibition	35%
O=c1oc2ccccc2cc1-c1cs/c(=N\N=C\c2ccc(Cl)c(Cl)c2)n1Cc1ccccc1	H37Rv	6.25 µg/mL			inhibition	<11%
COc1cccc(Nc2nc(NNc3nc(-c4ccccc4)c(C#N)c(=O)n3C)nc(Nc3cccc(OC)c3)n2)c1	H37Rv	12.5 µg/mL	VERO		inhibition	92%
CC(C)(C)c1ccc(/C=N/NC(=O)c2cccnc2)cc1	H37Rv			BACTEC	MIC bound	>12.5 µg/mL
NNC(=O)c1ccncc1	86 drug-resistant isolates				EC50	<10 µg/mL
COc1cc([C@H]2c3cc(O)c(OC)cc3C[C@H]3C(=O)OC[C@H]23)ccc1O	H37Rv	12.5 µg/mL		BACTEC	inhibition	9%
COc1cc(/C=C2/C(=O)NN(c3ccc(Cl)cc3)C2=O)cc([N+](=O)[O-])c1O	mc4914			MTT	MIC	3.2 µM
COC12CC(=O)C(C(C)=O)=C(O)C1(C)c1c(O)c(C)c(O)c(C(C)=O)c1O2	H37Rv		VERO	BACTEC	MIC	12.5 µg/mL
Cc1ccc(-n2c(SCc3ccc(Cl)cc3Cl)nnc2-c2ccc(N=Cc3ccc(O)cc3)cc2)cc1	H37Rv				EC50	<6.25 µg/mL
O=C(Nc1ccc(Br)cc1)c1cnccn1	H37Rv			BACTEC	MIC bound	≤12.5 µg/mL
CO[C@H]1/C=C/O[C@@]2(C)Oc3c(C)c(O)c4c(O)c(c(/C=N/Nc5ccc(C(=O)O)cc5)c(O)c4c3C2=O)NC(=O)/C(C)=C\C=C\[C@H](C)[C@H](O)[C@@H](C)[C@@H](O)[C@@H](C)[C@H](OC(C)=O)[C@@H]1C	H37Rv				EC50	>5 µg/mL
Cn1cc(N)cc1C(=O)Nc1cc(C(=O)Nc2ccc(S(=O)(=O)O)c3cc(S(=O)(=O)O)ccc23)n(C)c1	H37Rv			BACTEC	MIC bound	>12.5 µg/mL
C[C@@H]1CN(c2c(F)c(N)c3c(=O)c(C(=O)O)cn(C4CC4)c3c2F)C[C@H](C)N1	H37Rv				MBC	0.2 µg/mL

Again, the opening 8 rows:

| structure | strain | tested at | cell line | method | measure | value |
|---|---|---|---|---|---|---|
| C=C1C[C@@]23CC[C@H]4[C@@](C)(CCC[C@@]4(C)C(=O)O)[C@@H]2CC[C@@H]1C3 | H37Rv |  |  | BACTEC | MIC | ≥12.5 µg/mL |
| Nc1ccc(-c2nnc(SCc3ccc([N+](=O)[O-])cc3)n2-c2ccccc2)cc1 | H37Rv |  |  |  | EC50 | >6.25 µg/mL |
| NNC(=O)c1ccc(Br)cc1 | ATCC35801 |  |  |  | MIC50 | 21.5 µg/mL |
| CO[C@H]1/C=C/O[C@@]2(C)Oc3c(C)c(O)c4c(O)c(c(/C=N/c5ccccn5)c(O)c4c3C2=O)NC(=O)/C(C)=C\C=C\[C@H](C)[C@H](O)[C@@H](C)[C@@H](O)[C@@H](C)[C@H](OC(C)=O)[C@@H]1C | H37Rv |  |  |  | EC50 | 5 µg/mL |
| C=CCn1c(SCc2ccccc2)nnc1-c1ccc(N)cc1 | H37Rv |  |  |  | EC50 | >6.25 µg/mL |
| Cc1cnc(NC(=O)c2cnc(C(C)(C)C)c(Cl)n2)s1 | H37Rv | 6.25 µg/mL |  |  | inhibition | 61% |
| CCCN(CCC)/N=C/c1c2c(O)c3c(O)c(C)c4c(c3c1O)C(=O)[C@@](C)(O/C=C/[C@H](OC)[C@@H](C)[C@@H](OC(C)=O)[C@H](C)[C@H](O)[C@H](C)[C@@H](O)[C@@H](C)/C=C/C=C(/C)C(=O)N2)O4 | H37Rv |  |  |  | EC50 | 0.05 µg/mL |
| COc1c(N2CCNC(C)C2)c(F)cc2c(=O)c(C(=O)O)cn(C3CC3)c12 | 25 strains |  |  |  | MIC90 | 0.2 µg/mL |